Test system: genes linked to inflammation (il1b, il8, il1a)
Test: Expression of inflammation-linked genes in pig jejunum explants ex vivo
Details: explants exposed to 10 μM DON alone; FIG. 6

SMILES: CC1=C[C@H]2O[C@@H]3[C@H](O)C[C@](C)([C@@]2(CO)[C@H](O)C1=O)[C@]31CO1 [DON, Deoxynivalenol]
- production of gene transcripts linked to inflammation: leads to an increase in the production of gene transcripts linked to inflammation

— patent US20250241971A1 (priority 2022, published 2025)
